Measured values: article PMC6273649, “Synthesis of Novel Quaternary Ammonium Salts and Their in Vitro Antileishmanial Activity and U-937 Cell Cytotoxicity” (Molecules, 2016)

Experiments:
[1] = test system: intracellular amastigotes of L. (V) panamensis-pIR-eGFP; assay type: cell-based
Method: (§1) Virulent L. (V) panamensis MHOM/CO/87/UA140 strain transfected with green fluorescent protein gene called L. (V) panamensis-pIR-eGFP was maintained by successive passaging in golden hamsters (Mesocricetus auratus). Briefly, amastigotes were aspirated from cutaneous lesions of hamsters experimentally infected with promastigotes of L. (V) panamensis-pIR-eGFP. Samples were cultured in biphasic culture with Novy-MacNeal-Nicholle (NNN) medium as solid phase and PBS plus glucose, pH 6.9 as liquid phase and incubated at 26 °C to obtain promastigotes. Medium was changed every week until 2 months.
Intracellular amastigotes were obtained after infection of U-937 cells with promastigotes. Briefly, U-937 cells were dispensed in 24-well plates at a concentration of 300,000 cells/well and were treated with 1 µM of phorbol myristate acetate (PMA) (Sigma) for 48 h at 37 °C. Then, cells were infected with promastigotes in stationary growth phase (day 5) at a ratio of 1:15 cell/parasite and incubated for 3 h at 34 °C in 5% CO2. […] After 24 h of infection, cells were ready to be used in antileishmanial testing assay as described below.
The effect of compounds against intracellular amastigotes of L. (V) panamensis-pIR-eGFP was evaluated by flow cytometry using the methodology described by others. […] Infected and treated cells were maintained at 34 °C and 5% CO2 for 72 h. After 72 h, cells were washed twice with 1 mL of cold PBS and cells were removed from the bottom plate with a trypsin/EDTA ([…]) solution. Recovered cells were centrifuged at 1100 rpm for 10 min at 4 °C, the supernatant was discarded and cells were washed with 1 mL of cold PBS and centrifuged at 1100 rpm for 10 min at 4 °C. Supernatant was discarded and cells were suspended in 500 μL of PBS and analyzed by flow cytometry (FC 500MPL, Cytomics, Brea, CA, USA) using histogram analyses (Figure 2). […] Each concentration of compounds was tested in triplicate in two independent experiments.
The antileishmanial activity in intracellular amastigotes was determined according to the reduction of infected cells and parasite load (viable parasites inside infected cells) obtained for each experimental condition. The percentage of infected cell inhibition and parasite load for each concentration of each compound were calculated first using Equation (3): % infection = (% infected and treated cells ÷ % infected and untreated cells) × 100(3)
And then, the percentage of infection inhibition was calculated using Equation (4): % Inhibition = 100 − % infection(4)

[2] = test system: axenic amastigotes of L. (V) panamensis; assay type: cell-based
Method: as §1
The axenic amastigotes were obtained from promastigotes cutured in Schneider’s medium, as described elsewhere. Briefly, promastigotes of L. (V) panamensis-pIR-eGFP at 5 × 10^6 parasites/mL were cultured in Schneider medium (Sigma), pH 5.4 supplemented with 20% FBS and 1% antibiotics and incubation at 26 °C. Every three days, medium was changed and temperature was increased one degree each time until it reached 32 °C at which the transformation of the promastigotes into axenic amastigotes is achieved. After three days of growing as axenic amastigotes, parasites were ready to be used in the antileishmanial testing assay as described below.
The ability of compounds to kill axenic amastigotes of L. (V) panamensis was determined based on the viability of the parasites after exposure to each compound evaluated by the MTT method following the methodology described by others. Axenic amastigotes obtained as described above were harvested, washed, and adjusted at 2 × 10^6 parasites/mL in fresh Schneider’s medium with 20% FBS. Into each well of a 96-well plate 100 µL of parasite suspension (2 × 10^5 axenic amastigotes) were dispensed and then 100 µL of each concentration of the corresponding compound were added. […] Plates were incubated at 32 °C. After 72 h of incubation, the effect of each compound was determined by adding 10 µL/well of MTT and incubating at 32 °C for 3 h. The reaction was stopped as described above and the quantity of formazan produced was measured in a plate reader spectrophotometer (Bio-Rad) set at 570 nm. Axenic amastigotes cultivated in the absence of any compound but maintained under the same conditions were used as controls for growth and viability (negative control) while parasites cultivated in the presence of MA were used as controls for leishmanicidal activity (positive control). Assays were performed at least twice with three replicates per each concentration tested.
In turn, activity of compounds with axenic amastigotes was determined according to the reduction of parasite growth percentages obtained for each experimental condition. The percentage of parasite growth was calculated first using Equation (5): % parasite growth = (O.D. treated ax. amastigotes)/(O.D. of untreated ax. amastigotes) × 100(5) where the O.D. of the untreated axenic amastigotes corresponds to 100% parasite growth. Then, the percentage of parasite growth inhibition was calculated using Equation (6): % parasite growth inhibition = 100 − % parasite growth(6)

[3] = Selectivity Index = LC50/EC50 (U-937 LC50 / intracellular amastigote EC50)
[4] = Selectivity Index = LC50/EC50 (U-937 LC50 / axenic amastigote EC50)

Row | Molecule | Intracellular Amastigotes SI [1] | Axenic Amastigotes SI ([2]; ratio CC50 / EC50) | Intracellular Amastigotes SI [1, 3] | Axenic Amastigotes SI [2, 4]
1 | C[C@@H]1[C@H](O)[C@@H](C)/C=C/C=C/C=C/C=C/C=C/C=C/C=C/[C@H](O[C@@H]2O[C@H](C)[C@@H](O)[C@H](N)[C@@H]2O)C[C@@H]2O[C@](O)(C[C@@H](O)C[C@@H](O)[C@H](O)CC[C@@H](O)C[C@@H](O)CC(=O)O[C@H]1C)C[C@H](O)[C@H]2C(=O)O [AmB, Amphotericin B, reference compound] | 560 | 690 | – | –
2 | C[N+](C)(C)CCCC=C(c1ccccc1)c1ccccc1.[I-] [Compound 3b, N,N,N-Trimethyl-N-(5,5-diphenylpent-4-en-1-yl)ammonium iodide] | – | – | 1.2 | 1.1
3 | meglumine antimoniate [MA, reference compound] | – | – | 56.6 | –
4 | C[N+](C)(CCl)CCC=C(c1ccccc1)c1ccccc1.[I-] [Compound 1a, N-Chloromethyl-N,N-dimethyl-N-(4,4-diphenylbut-3-en-1-yl)ammonium iodide] | – | – | 1.2 | 1.3
5 | C[N+](C)(CI)CCCCC=C(c1ccccc1)c1ccccc1.[I-] [Compound 2c, N-Iodomethyl-N,N-dimethyl-N-(6,6-diphenylhex-5-en-1-yl)ammonium iodide] | – | – | 0.5 | 0.7
6 | C[N+](C)(CCl)CCCCC=C(c1ccccc1)c1ccccc1.[I-] [Compound 1c, N-Chloromethyl-N,N-dimethyl-N-(6,6-diphenylhex-5-en-1-yl)ammonium iodide] | – | – | 0.4 | 0.5
7 | C[N+](C)(CCl)CCCC=C(c1ccccc1)c1ccccc1.[I-] [Compound 1b, N-Chloromethyl-N,N-dimethyl-N-(5,5-diphenylpent-4-en-1-yl)ammonium iodide] | – | – | 0.5 | 0.4
8 | C[N+](C)(C)CCO.[I-] [Compound 4c, (2-Hydroxyethyl)trimethylammonium iodide, reference compound] | – | – | 2.5 | 7.9
9 | C[N+](C)(CCl)CCO [Compound 4a, N-Choromethyl-N,N-dimethyl-N-(2-hydroxyet-1-yl)ammonium iodide] | – | – | 0.6 | 0.7
10 | C[N+](C)(C)CCC=C(c1ccccc1)c1ccccc1.[I-] [Compound 3a, N,N,N-Trimethyl-N-(4,4-diphenylbut-3-en-1-yl)ammonium iodide] | – | – | 1.3 | 1.5
11 | C[N+](C)(CI)CCC=C(c1ccccc1)c1ccccc1.[I-] [Compound 2a, N-Iodomethyl-N,N-dimethyl-N-(4,4-diphenylbut-3-en-1-yl)ammonium iodide] | – | – | 1.7 | 1.3
12 | C[N+](C)(CI)CCO [Compound 4b, N-Iodomethyl-N,N-dimethyl-N-(2-hydroxyet-1-yl)ammonium iodide] | – | – | 0.7 | 0.9
13 | C[N+](C)(C)CCCCC=C(c1ccccc1)c1ccccc1.[I-] [Compound 3c, N,N,N-Trimethyl-N-(6,6-diphenylhex-5-en-1-yl)ammonium iodide] | – | – | 0.3 | 0.4
14 | C[N+](C)(CI)CCCC=C(c1ccccc1)c1ccccc1.[I-] [Compound 2b, N-Iodomethyl-N,N-dimethyl-N-(5,5-diphenyl-4-penten-1-yl)ammonium iodide] | – | – | 0.4 | 0.5

Read-outs that look alike come from different tables or passages of the source.
